According to patent US20090076067A1, “PHARMACEUTICAL COMPOSITION COMPRISING AZARHODACYANINE COMPOUND AS ACTIVE INGREDIENT” (priority 2005, published 2009):

Legend:
Type in all cases: cell-based
[1] = tested on: Plasmodium Falciparum k1 strain; experiment: Chloroquine-resistant tropical malaria protozoa proliferation inhibition screening test; settings: EC50 rat L6 cells / EC50 Chloroquine-resistant malaria protozoa
Procedure: In this experiment, Plasmodium Falciparum k1 strain protozoa were used. The medium used in the experiment was filter-sterilized RPMI-1640 medium. To the medium human serum was added to achieve 5% concentration. The protozoa was cultured under condition of O2 concentration 3%, CO2 concentration 4%, N2 concentration 93%, and temperature 37° C.
The cultured malaria infected red blood cells were collected by centrifugation, diluted with non-infected red blood cells, to achieve initial infection rate 0.15%. The hematocrit was 2.5%.
To each well in a 96-well culture plate, 200 μL malaria infected culture was added, and either test solution containing test compound at predefined concentration or DMSO having no test compound was added. Each test solution was prepared in duplicate. After 48 hours culture under 37° C., hypoxanthine labeled with radioactive tritium (^3H) of 0.5 μCi was added to each well. After culturing under same condition for 24 hours, the product was collected on a glass fiber filter and washed. The intensity of radiation was measured by Beta plate liquid scintillation counter (Wallac Inc.), to determine malaria protozoa infection rate in test compound samples and control samples.
Using the malaria protozoa infection rate, the proliferation inhibition rate was calculated according to the following equation to determine 50% proliferation inhibition concentration (EC50).
Proliferation inhibition rate(%)={1−(b−a)/(c−a)}×100
a: initial infection rate b: infection rate of test compound solution c: infection rate of the control

[2] = tested on: Leishmania donovani (MHOM/ET/67/L82 strain); experiment: Leishmania protozoa proliferation inhibition screening test; settings: EC50 rat L6 cells / EC50 leishmania protozoa
Procedure: In this experiment, Leishmania donovani (MHOM/ET/67/L82 strain) was used. The protozoa were successively cultured in Syrian Golden hamsters to obtain amastigote. The medium used in the experiment was SM medium having heat-treated fetal bovine serum 10% added, and pH prepared to 5.4. The culture was conducted under CO2 concentration 5% and temperature 37° C.
Either the compound of the invention or a positive control (miltefosine) was dissolved into DMSO to prepare test solution having predefined concentration. To each well of a 96-well culture plate, medium containing predetermined number of protozoa was added and the culture was pre-treated. The concentration of amastigote was determined by CASY cell analyze system (Scharfe GMBH Co., Germany). Subsequently, either test solution containing compound of the invention in predefined concentration or DMSO without compound was added. The test solution was duplicated.
The plate was cultured in an incubator for 72 hours, and the proliferation inhibition activity was examined. The activity was determined as follows. […] Then the culture plate was mounted on a fluorescence microplate reader (Spectramax Gemeni XS; Molecular Devices Corporation, U.S), and irradiated 536 nm excitation wavelength to determine […] at 588 nm. The leishmania infection rate of the sample containing the test compound and that of the control sample was calculated. […]

[3] = tested on: Trypanosoma brucei rhodensiense (STIB 900 strain); experiment: African trypanosoma protozoa proliferation inhibition screening test; settings: EC50 rat L6 cells / EC50 African trypanosoma protozoa
Procedure: In this experiment, bloodstream form trypomastigote of Trypanosoma brucei rhodensiense (STIB 900 strain) was used. The medium used in the experiment was prepared as follows: to filter-sterilized MEM medium, 25 mM N-2-hydroxyethylpiperazine-2-ethane sulfonate (HEPES), 1 g/L glucose, 1% MEM nonessential amino acid, 0.2 mM 2-mercaptoethanol, 2 mM pyruvic calcium salt, 0.1 mM hypoxanthine, and 15% heat-treated horse serum were added. The protozoa was cultured under atmosphere of CO2 concentration 5% and temperature 37° C.
Either the compound of the invention or a positive control (melarsoprol) was dissolved into dimethylsulfoxide (DMSO) to prepare test solution having predefined concentration. To each well in a 96-well culture plate, medium containing 8×10^3 protozoa, and either test solution containing the test compound at predefined concentration or DMSO without compound was added. […]
The culture plate was cultured in an incubator for 72 hours, and the proliferation inhibition activity was examined. The activity was determined as follows. […] Then the culture plate was mounted on a fluorescence microplate reader (Spectramax Gemeni XS; Molecular Devices Corporation, U.S.), and irradiated with 536 nm excitation wavelength to determine fluorescence at 588 nm. The trypanosoma infection rate of the sample containing the test composition and that of the control sample was calculated. […]

Row | SMILES | Selective toxicity [1] | Selective toxicity [2] | Selective toxicity [3]
1 | CCN1C(=O)/C(=c2/s/c(=C3/C=CC=CN3C)c(=O)n2CC)S/C1=N\c1scc[n+]1C [Compound B-19] | 1628 |  | 
2 | CCN1C(=O)/C(=c2/s/c(=C3/SCCN3C)c(=O)n2CC)S/C1=N\c1sc2cc(OC)ccc2[n+]1C [Compound B-29] | 330 | >49 | 86
3 | CCN1C(=O)/C(=c2/s/c(=C3/C=CC=CN3C)c(=O)n2CC)S/C1=N\c1sc2cc(OC)ccc2[n+]1C [Compound B-28] | 715 | 135 | 119
4 | C=CCN1C(=O)/C(=c2/s/c(=C3/C=CC=CN3C)c(=O)n2CC)S/C1=N\c1scc[n+]1C [Compound B-40] | 2282 |  | 
5 | CCN1C(=O)/C(=C/C=C2\Sc3ccccc3N2C)S/C1=N\c1sc2cc(Cl)ccc2[n+]1C [Compound C-2] | 454 |  | 
